Anti-infective test results gathered from many reports (values: NIAID ChemDB through PubChem).

Common to all: tests on isolated targets; endpoint: IC50

Conditions beyond the fields shown may differ between rows.

compound | target | agent | value
CC(Cl)(C(=O)O)P(=O)(O)O | DNA polymerase | Herpes simplex virus 1 | >100 µM
COc1ccc(O)c2ccccc12 | Protease | Herpes simplex virus 1 | >100 µM
O=P(O)(O)C(O)P(=O)(O)O | DNA polymerase | Herpes simplex virus 2 | 260 µM
CCSC(=O)NC[C@H]1O[C@@H](n2cc(I)c(=O)[nH]c2=O)C[C@@H]1O | Thymidine kinase | Herpes simplex virus 1 | >0.5 µM
O=P(O)(O)OP(=O)(O)O | DNA polymerase | Herpes simplex virus 2 | 500 µM
O=P(O)(O)C(F)(F)P(=O)(O)O | DNA polymerase | Herpes simplex virus 2 | >100 µM
CCCCCCCCCC(C(=O)O)P(=O)(O)O | DNA polymerase | Herpes simplex virus 2 | 5 µM
CC(=O)NC[C@H]1O[C@@H](n2cc(I)c(=O)[nH]c2=O)C[C@@H]1O | Thymidine kinase | Herpes simplex virus 1 | 0.56 µM
O=C(O)C(F)P(=O)(O)O | DNA polymerase | Herpes simplex virus 2 | 3.8 µM
COP(=O)(O)C(=O)O | DNA polymerase | Herpes simplex virus 1 | >35 µM
CC(=O)NC[C@H]1O[C@@H](n2cc(C)c(=O)[nH]c2=O)C[C@@H]1O | Thymidine kinase | Herpes simplex virus 1 | 2.9 µM
CC(C(=O)O)P(=O)(O)O | DNA polymerase | Herpes simplex virus 2 | 550 µM
O=C(O)C(Cl)P(=O)(O)O | DNA polymerase | Herpes simplex virus 1 | 3.2 µM
CS(=O)(=O)NC[C@H]1O[C@@H](n2cc(I)c(=O)[nH]c2=O)C[C@@H]1O | Thymidine kinase | Herpes simplex virus 1 | 0.5 µM
Oc1cccc2c(O)cccc12 | Protease | Herpes simplex virus 1 | >100 µM
CC(=O)NC[C@H]1O[C@@H](n2cc(I)c(=O)[nH]c2=O)C[C@@H]1OC(C)=O | Thymidine kinase | Herpes simplex virus 1 | 0.91 µM
O=C(P(=O)(O)O)P(=O)(O)O | DNA polymerase | Herpes simplex virus 2 | 27 µM
Cc1cn([C@H]2C[C@H](O)[C@@H](CN=[N+]=[N-])O2)c(=O)[nH]c1=O | Thymidine kinase | Herpes simplex virus 1 | 0.6 µM
CC(F)(C(=O)O)P(=O)(O)O | DNA polymerase | Herpes simplex virus 2 | >100 µM
Oc1ccc2ccccc2c1O | Protease | Herpes simplex virus 1 | 28.8 µM

For reference, 2 entries again:

CCSC(=O)NC[C@H]1O[C@@H](n2cc(I)c(=O)[nH]c2=O)C[C@@H]1O ; target: Thymidine kinase ; agent: Herpes simplex virus 1 ; value: >0.5 µM
CC(F)(C(=O)O)P(=O)(O)O ; target: DNA polymerase ; agent: Herpes simplex virus 2 ; value: >100 µM

ICn is the concentration giving n% inhibition.